Results of unrelated studies side by side (data: NIAID ChemDB).

All rows: enzyme or target tests; agent: HIV-1; target: Reverse transcriptase

Rows are shuffled and stem from different studies. ICn is the concentration giving n% inhibition. Two numbers with a dash give a range or band. Blank or dashed fields: not listed here.

structure	strain or isolate	read by	changes	endpoint	result
Cc1cc(C)cc(Cc2nc(OC3CCCC3)[nH]c(=O)c2C)c1	IIIB	nucleotide incorporation	-	IC50	>10 µM
C[C@@H](CNC(=S)Nc1ccc(Br)cn1)C1CCCCC1	-	-	-	Ki	1.1 µM
CC(C)=CCc1c2c(c(O)c3c1O[C@@]14C5C[C@@H](C(=O)[C@@]1(C/C=C(/C)C(=O)O)OC5(C)C)C1OC14C3=O)C=CC(C)(C)O2	-	nucleotide incorporation / radiometric	-	IC50	101.8 µg/mL
Nc1ncnc2c1ncn2[C@@H]1O[C@H](COP(=O)(O)OP(=O)(O)OP(=O)(O)O)C[C@@H]1F	-	nucleotide incorporation / radiometric	RT-M184V	Ki	2.5 µM
Nc1nc2c(ncn2[C@H]2CC[C@@H](COP(=O)(O)OP(=O)(O)OP(=O)(O)O)O2)c(=O)[nH]1	-	nucleotide incorporation	-	IC50	0.08 µM
Cc1c(-c2c(C)c(=O)c3c(C(C)C)c(=O)c(=O)c(C=O)c-3c2=O)c(O)c2c(C=O)c(O)c(O)c(C(C)C)c2c1O	LAV	HPLC	-	IC50	1.7 µM
Nc1nc(Cl)c2ncn([C@H]3C=C[C@@H](COP(=O)(O)OP(=O)(O)OP(=O)(O)O)C3)c2n1	-	fluorescence	-	IC50	>10 µM
Cc1c(Sc2ccccc2)n(COCCO)c(=O)[nH]c1=O	-	-	RT-Y181I	IC50	~4 µM
CC(=O)Oc1c(OC(C)=O)c(C#N)c2c(OC(C)=O)c(-c3c(C)cc4c(C(C)C)c(OC(C)=O)c(OC(C)=O)c(C#N)c4c3OC(C)=O)c(C)cc2c1C(C)C	LAV	HPLC	-	IC50	2.7 µM
CCN1c2ncc(CCOc3ccc(CC(=O)O)c4ccccc34)cc2C(=O)N(C)c2ccc(F)nc21	-	nucleotide incorporation / radiometric	RT-Y188L	IC50	>1 µM
CC(C)=CCOc1cc(NC(=S)c2ccoc2C)ccc1Cl	-	-	-	IC50	3.2 µM
O=C(c1ccc(F)cc1)N1CCN(C(=O)c2cc(O)c(O)c(O)c2)CC1	BH10	ELISA / nucleotide incorporation	-	IC50	>50 µM
C[C@H](NC(=S)Nc1ccccn1)c1cccc2ccccc12	-	-	-	IC50	>100 µM
CCN1c2ncc(CCOc3ccc(C(=O)O)c4c3CCCC4)cc2C(=O)N(C)c2cccnc21	WT	nucleotide incorporation / radiometric	-	IC50	<0.1 µM
Cc1cc(C)cc(Cc2cc(=O)[nH]c(OC(C)C)n2)c1	IIIB	nucleotide incorporation	-	IC50	3.2 µM
Cc1cc2c(C(C)C)c(O)c(O)c(C=O)c2c(O)c1-c1c(C)cc2c(C(C)C)c(O)c(O)c(C=O)c2c1O	LAV	HPLC	-	IC50	4.6 µM
CC(C)=CCc1c2c(c(O)c3c1O[C@@]14C(=C[C@H]5CC1C(C)(C)O[C@]4(CC=C(C)C)C5=O)C3=O)C=CC(C)(C)O2	-	nucleotide incorporation / radiometric	-	IC50	186.2 µg/mL
CCC(C)Oc1nc(Cc2cccc(C)c2)cc(=O)[nH]1	IIIB	nucleotide incorporation	-	IC50	2 µM
Cc1cc(C)c(-n2nnnc2SCC(=O)Nc2ccc(OCCCN(C)C)cc2Cl)c(C)c1	-	-	RT-K103N	IC50	0.065 µM
Cc1cc2c(C(C)C)c(O)c(O)c(C=Nc3ccc(C(=O)O)cc3)c2c(O)c1-c1c(C)cc2c(C(C)C)c(O)c(O)c(C=Nc3ccc(C(=O)O)cc3)c2c1O	LAV	HPLC	-	IC50	6.2 µM
CC(C)=CCC[C@]1(C)C=Cc2c(O)c3c(c(CC=C(C)C)c2O1)O[C@@]12C(=C[C@H]4CC1C(C)(C)O[C@]2(C/C=C(/C)C(=O)O)C4=O)C3=O	-	nucleotide incorporation / radiometric	-	IC50	15 µg/mL
NS(=O)(=O)c1ccc(NC(=O)CSc2nnnn2-c2cc(Cl)ccc2Cl)c(Cl)c1	-	-	-	IC50	0.003 µM
Nc1ccn([C@H]2CC[C@@H](COP(=O)(O)OP(=O)(O)OP(=O)(O)O)O2)c(=O)n1	-	RT activity	RT-WT	Ki	0.2 µM
CN(C)C(=O)N1CCN(C(=O)c2cc(O)c(O)c(O)c2)CC1	BH10	ELISA / nucleotide incorporation	-	IC50	>50 µM
Nc1ncnc2c1ncn2[C@H]1CC[C@@H](COP(=O)(O)OP(=O)(O)OP(=O)(O)O)O1	-	nucleotide incorporation / radiometric	RT-M184V	Ki	0.22 µM
COc1ccc(Oc2ccc(C(=O)O)cc2NC(=O)Nc2c(C)cccc2C)cc1	-	scintillation proximity / radiometric	K103N	IC50	>5 µM
CCN1c2ncc(CCOc3ccc4cc(C(=O)O)ccc4c3)cc2C(=O)N(C)c2cccnc21	-	nucleotide incorporation / radiometric	RT-Y188L	IC50	>1 µM
CCOC(=O)Cc1csc(NC(=S)NC[C@@H](C)c2ccccc2)n1	-	-	-	IC50	>100 µM
COC(=O)C(CO)N=Cc1c(O)c(O)c(C(C)C)c2cc(C)c(-c3c(C)cc4c(C(C)C)c(O)c(O)c(C=NC(CO)C(=O)OC)c4c3O)c(O)c12	LAV	HPLC	-	IC50	14.4 µM
Nc1nc(=O)n([C@@H]2CC[C@H](COP(=O)(O)OP(=O)(O)OP(=O)(O)O)O2)cc1F	-	nucleotide incorporation / radiometric	-	Ki	2.8 µM
Cc1cc(C)c(-n2nnnc2SCC(=O)Nc2ccccc2[N+](=O)[O-])c(C)c1	-	-	RT-K103N	IC50	0.009 µM
Cc1cn([C@H]2C=C[C@@H](COP(=O)(O)OP(=O)(O)OP(=O)(O)O)O2)c(=O)[nH]c1=O	-	-	RT-Q161L	Ki	0.046 µM
CC(C)=CCc1c(O)cc(O)c2c1O[C@@]13C(=C[C@H]4CC1C(C)(C)O[C@]3(CC=C(C)C)C4=O)C2=O	-	nucleotide incorporation / radiometric	-	IC50	621 µg/mL
Nc1ccc(C(=O)N2CCC(NC(=O)c3cc(O)c(O)c(O)c3)CC2)cc1	BH10	ELISA / nucleotide incorporation	-	IC50	>323.1 µM
CCN1c2ncc(CCOc3ccc(CC(C)C(=O)O)c4ccccc34)cc2C(=O)Nc2c(C)cc(Cl)nc21	-	nucleotide incorporation / radiometric	RT-V106A	IC50	0.1–1 µM
Nc1ncnc2c1ncn2CCOCP(=O)(O)OP(=O)(O)OP(=O)(O)O	-	nucleotide incorporation / radiometric	RT-Q151M	Ki	0.22 µM
CC(=O)N1CCC(NC(=O)c2cc(O)c(O)c(O)c2)CC1	BH10	ELISA / nucleotide incorporation	-	IC50	>407.7 µM
Nc1nc2c(ncn2[C@H]2C=C[C@@H](COP(=O)(O)OP(=O)(O)OP(=O)(O)O)C2)c(=O)[nH]1	-	-	-	Ki	0.09 µM
C[C@H](CNC(=S)Nc1ccc(Cl)cn1)c1ccccc1	-	-	-	IC50	1.39 µM
Cc1cc(C)c(S(=O)(=O)N2CCC(NC(=O)c3cc(O)c(O)c(O)c3)CC2)c(C)c1	BH10	ELISA / nucleotide incorporation	-	IC50	>276.2 µM
Cc1cc(S(N)(=O)=O)ccc1NC(=O)COc1ccc(Cl)cc1C(=O)c1cc(Cl)cc(C#N)c1	-	fluorescence	RT-V108I	IC50	0.002 µM
CCN1c2ncc(CCOc3ccc(C(=O)O)c4ccccc34)cc2C(=O)Nc2c(C)cc(Cl)nc21	WT	nucleotide incorporation / radiometric	-	IC50	<0.1 µM
C[C@@H](CNC(=S)Nc1ccccn1)c1ccccc1	-	-	-	IC50	8.4 µM
CCOc1ccc(N2CC(O)Cn3c2nc2c3c(=O)n(CC(N)=O)c(=O)n2C)cc1	-	nucleotide incorporation / absorbance	-	IC50	>100 µM
CCN1c2ncc(CCOc3ccc(C(=O)O)c4ccccc34)cc2C(=O)N(C)c2ccc(Cl)nc21	WT	nucleotide incorporation / radiometric	-	IC50	<0.1 µM
Nc1nc2c(ncn2[C@H]2C=C[C@@H](COP(=O)(O)OP(=O)(O)OP(=O)(O)O)C2)c(=O)[nH]1	-	fluorescence	-	Ki	0.037 µM
Cc1cccc(Cc2cc(=O)[nH]c(OC3CCCC3)n2)c1	IIIB	nucleotide incorporation	-	IC50	3.1 µM
Nc1ccn([C@@H]2CS[C@H](COP([O-])(=S)OP(=O)(O)C(F)(F)P(=O)(O)O)O2)c(=O)n1	-	fluorescence	-	IC50	>10 µM
Cc1cc(C)c(-n2nnnc2SCC(=O)Nc2ccc([N+](=O)[O-])cc2Cl)c(C)c1	-	-	RT-K103N	IC50	0.11 µM
C[C@H](NC(=S)Nc1ccc(Br)cn1)c1cccc2ccccc12	-	-	-	IC50	>100 µM
Cc1cc(C)c(-n2nnnc2SCC(=O)Nc2ccc(S(N)(=O)=O)cc2C)c(C)c1	-	-	RT-K103N	IC50	0.054 µM
CCCC(=O)c1c(O)c(CC2(C)C(=O)C(C(=O)C(C)CC)=C(O)C(C)=C2O)c(O)c(C)c1OC	LAV	HPLC	-	IC50	2 µM
CC(C)Nc1cccnc1N1CCN(C(=O)c2cc3ccccc3[nH]2)CC1	-	nucleotide incorporation	-	IC50	0.97 µM
Cc1cc2c(C(C)C)c(O)c(O)c(C=NCCS(=O)(=O)O)c2c(O)c1-c1c(C)cc2c(C(C)C)c(O)c(O)c(C=NCCS(=O)(=O)O)c2c1O	LAV	HPLC	-	IC50	16 µM
Cc1cccc(NC(=S)N[C@H](C)c2ccccc2)n1	-	-	-	IC50	1.7 µM
Cc1cccc(Cc2nc(OC3CCCC3)[nH]c(=O)c2C)c1	IIIB	nucleotide incorporation	-	IC50	>10 µM

For reference, 6 entries again:

structure | strain or isolate | read by | changes | endpoint | result
CCC(C)Oc1nc(Cc2cccc(C)c2)cc(=O)[nH]1 | IIIB | nucleotide incorporation | - | IC50 | 2 µM
Nc1nc2c(ncn2[C@H]2C=C[C@@H](COP(=O)(O)OP(=O)(O)OP(=O)(O)O)C2)c(=O)[nH]1 | - | - | - | Ki | 0.09 µM
C[C@H](CNC(=S)Nc1ccc(Cl)cn1)c1ccccc1 | - | - | - | IC50 | 1.39 µM
O=C(c1ccc(F)cc1)N1CCN(C(=O)c2cc(O)c(O)c(O)c2)CC1 | BH10 | ELISA / nucleotide incorporation | - | IC50 | >50 µM
Nc1ncnc2c1ncn2[C@H]1CC[C@@H](COP(=O)(O)OP(=O)(O)OP(=O)(O)O)O1 | - | nucleotide incorporation / radiometric | RT-M184V | Ki | 0.22 µM
Cc1cc(C)c(-n2nnnc2SCC(=O)Nc2ccccc2[N+](=O)[O-])c(C)c1 | - | - | RT-K103N | IC50 | 0.009 µM